In article PMC9133232 (Cell chemical biology, 2022):

Key:
[1] = target: HCMV C-A L222D (Human cytomegalovirus, UniProt P16753, A143V/A209V/C138A/C202A/C84A/C87A/L222D); type: binding
[2] = target: HCMV C-A C161A (Human cytomegalovirus, UniProt P16753, A143V/A209V/C138A/C161A/C202A/C84A/C87A); type: binding

`O=C(CCl)Cn1nnc(-c2ccccc2)c1COC(=O)NCc1ccccc1` [Compound 43, (1-(3-Chloro-2-oxopropyl)-4-phenyl-1H-1,2,3-triazol-5-yl)methyl benzylcarbamate] was tested, and the “rate of labeling (kobs) HCMV C-A L222D monomer” value [1] was 0.050 min⁻¹ and the “labeling of HCMV C-A C161A” value [2] was “no labeling occurs”.
